In PMC8286836, “Identifying SARS-CoV-2 antiviral compounds by screening for small molecule inhibitors of Nsp5 main protease” (Biochemical Journal, 2021):
Where a name gives a salt, the structure may show the parent alone. Where a SMILES comes first, the peptide text is derived from it. [ ]: non-standard residue; d: D form. The star is where a group is joined. Nle = CCCC[C@H](N)C(=O)O; Cbz = O=C(OCc1ccccc1)*; CH2F = FC*

Assay: compound interference with the HTS emission wavelength (420 nm)
Parameters: key: normal: drug compounds that did not interfere with the HTS emission wavelength; moderate: Those that interfered slightly but a reduction in nsp5 activity was still evident; HIGH: those that greatly interfered with the HTS fluorescence and so were likely artificial hits we classed as ‘high'
Details: interference with HTS emission wavelength 420 nm

In the case of CN1C2CCCC1CC(NC(=O)c1nn(C)c3ccccc13)C2 (stereo not drawn) [Granisetron HCl], the Fluorescence was “HIGH”.

With CC(C)(C#N)c1ccc(N2C(=O)OCc3cnc4ccc(-c5cnc6ccccc6c5)cc4c32)cc1 [ETP-46464] the Fluorescence was “HIGH”.

For CC(C)=CCc1cc2c(cc1O)oc(=O)c1c3ccc(O)cc3oc21 [3,9-dihydroxy-2-(3-methyl-2-butenyl)-6H-[1]benzofuro[3,2-c]chromen-6-one], the Fluorescence was “HIGH”.

In the case of CCCC[C@@H](C=O)NC(=O)[C@H](CC(C)C)NC(=O)[C@H](CC(C)C)NC(C)=O [Calpain Inhibitor I, (2S)-2-(acetylamino)-N-[(1S)-1-({[(1S)-1-formylpentyl]amino}carbonyl)-3-methylbutyl]-4-methylpentanamide] (Ac-Leu-Leu-[Nle]-aldehyde), the Fluorescence was “normal”.

For CCOc1ccc(Cc2cc([C@@H]3O[C@H](SC)[C@@H](O)[C@H](O)[C@H]3O)ccc2Cl)cc1 [Sotagliflozin (LX4211), Sotagliflozin], the Fluorescence was “normal”.

With C=CCn1c(=O)c2c(nc(-c3ccc(S(=O)(=O)O)cc3)n2C)n(C)c1=O [1-Allyl-3,7-dimethyl-8-p-sulfophenylxanthine] the Fluorescence was “moderate”.

With Cc1ccc(S(=O)(=O)Cc2nc(-c3ccc(C(=O)NCc4cccnc4)cc3)oc2C)cc1 [STF-118804] the Fluorescence was “HIGH”.

In the case of COc1cc2nc(N3CCN(C(=O)C4COc5ccccc5O4)CC3)nc(N)c2cc1OC.CS(=O)(=O)O (stereo not drawn) [Doxazosin (mesylate)], the Fluorescence was “HIGH”.

For PDK1/Akt/Flt Dual Pathway Inhibitor, the Fluorescence was “moderate”.

With COc1cc2ncc(-c3ccccc3)nc2cc1OC [Tyrphostin AG 1296] the Fluorescence was “moderate”.

With CCC(C)C(NC(=O)OCc1ccccc1)C(=O)NC(CCC(=O)OC)C(=O)NC(C(=O)NC(CC(=O)OC)C(=O)CF)C(C)O (stereo not drawn) [Z-IETD-FMK] (Cbz-IE(OMe)TD(OMe)-CH2F; configuration not given here) the Fluorescence was “normal”.

With C=C1C[C@@]2(O)O[C@@]3(C[C@H]2C(C)C)[C@@H](C)CC[C@@H]13 [Curcumol] the Fluorescence was “HIGH”.

With CC(C)[C@H](N=C(NS(=O)(=O)c1ccc(Cl)cc1)N1C[C@H](c2ccccc2)C(c2ccc(Cl)cc2)=N1)C(N)=O [JD-5037] the Fluorescence was “HIGH”.

In the case of Cc1ccccc1N=Nc1ccc(NC(=O)c2ccnn2C)c(C)c1 [CH-223191], the Fluorescence was “normal”.

For O=C1O/C(=C/Br)CCC1c1cccc2ccccc12 (stereo not drawn) [Bromoenol lactone], the Fluorescence was “normal”.

With COc1ccc(COc2cc3oc(=O)c4cc(C(C)O)ccc4c3cc2OC)cc1 (stereo not drawn) [Palomid 529] the Fluorescence was “HIGH”.

With COC(=O)CC(NC(=O)C(C)NC(=O)C(NC(=O)OCc1ccccc1)C(C)C)C(=O)CF (stereo not drawn) [Z-VAD-FMK, Z-VAD(OMe)-FMK] (Cbz-Val-Ala-Asp(OMe)-CH2F; configuration not given here) the Fluorescence was “normal”.

In the case of COc1cc2nc(N(C)CCCNC(=O)C3CCCO3)nc(N)c2cc1OC (stereo not drawn) [Alfuzosin], the Fluorescence was “HIGH”.

With COC(=O)CCC(NC(=O)C(CC(=O)OC)NC(=O)OCc1ccccc1)C(=O)NC(C(=O)NC(CC(=O)OC)C(=O)CF)C(C)C (stereo not drawn) [Z-DEVD-FMK] the Fluorescence was “normal”.

With COc1cc2nc(N3CCN(C(=O)c4ccco4)CC3)nc(N)c2cc1OC [Prazosin hydrochloride] the Fluorescence was “HIGH”.

For O=C(O)CCCCC(CCSCc1ccccc1)SCc1ccccc1 (stereo not drawn) [CPI-613], the Fluorescence was “HIGH”.

With Cn1cc(-c2ccc3ncc(Cc4ccc5ncccc5c4)n3n2)cn1 [NVP-BVU972] the Fluorescence was “HIGH”.

With Br.CCCc1cc(-c2nc(-c3ccc(C)cc3)cs2)ccn1 [Fatostatin HBr] the Fluorescence was “normal”.

For COc1ccc(-c2ccc3cc(C(=O)O)ccc3c2)cc1C12CC3CC(CC(C3)C1)C2 [Adapalene], the Fluorescence was “HIGH”.

For COc1cc2c(cc1OC)CN(CCc1ccc(NC(=O)c3cc(OC)c(OC)cc3NC(=O)c3cnc4ccccc4c3)cc1)CC2 [Tariquidar], the Fluorescence was “HIGH”.

With Cn1c2ccccc2c2c3c(c4c5ccccc5n(CCC#N)c4c21)CNC3=O [Go6976] the Fluorescence was “moderate”.

With CN1CCN(c2c(F)cc3c(=O)c(C(=O)O)cn4c3c2OCN4C)CC1 [Marbofloxacin] the Fluorescence was “moderate”.
